Pooled drug test results. Numbers come from NIAID ChemDB, via PubChem.

Shared fields: whole-cell or culture tests; organism: HIV-1; cells: CEM + CEM-SS; read-out: fold resistance

Fold resistance has wild type as its base. Rows are shuffled and stem from different studies.

compound,strain,mutations,read by,result
Cc1ccnc2c1NC(=O)c1cccnc1N2C1CC1,NL4-3(RT-4XAZT+Y181C),RT-D67N K70R Y181C T215Y K219Q,cytopathic effect / XTT,40
Cc1cn([C@H]2C[C@H](N=[N+]=[N-])[C@@H](CO)O2)c(=O)[nH]c1=O,NL4-3,RT-V179D,cytopathic effect / XTT,3
Cc1ccnc2c1NC(=O)c1cccnc1N2C1CC1,NL4-3,RT-V108I,cytopathic effect / XTT,3
Cc1cn([C@H]2C[C@H](N=[N+]=[N-])[C@@H](CO)O2)c(=O)[nH]c1=O,UC040-R (RT-Y181C),RT-Y181C,cytopathic effect / XTT,0.8
Cc1ccnc2c1NC(=O)c1cccnc1N2C1CC1,CALO(RT-T139I),RT-T139I,cytopathic effect / XTT,1
Cc1occc1C(=S)Nc1ccc(Cl)c(/C=N/OC(C)(C)C)c1,NL4-3 (RT V179D),RT-V179D,cytopathic effect / XTT,8.75
Cc1cn([C@H]2C[C@H](N=[N+]=[N-])[C@@H](CO)O2)c(=O)[nH]c1=O,Nevirapine-resistant (RT Y181C),RT-Y181C,XTT,0.6
Cc1ccnc2c1NC(=O)c1cccnc1N2C1CC1,NL4-3 (RT A98G),RT-A98G,cytopathic effect / XTT,10
O=[N+]([O-])c1ccccc1S(=O)(=O)c1ccccc1,IIIB(DPS-R(III)),RT-Y181C,cytopathic effect / XTT,>60
Cc1cn([C@H]2C[C@H](N=[N+]=[N-])[C@@H](CO)O2)c(=O)[nH]c1=O,NL4-3,RT-V108I,cytopathic effect / XTT,3.33
O=S1(c2ccccc2)=NC(=S)Nc2ccccc21,IIIB(THZ-R(I)),RT-V108I,cytopathic effect / XTT,42
C1=Nc2ccccc2SN1,IIIB,RT-Y181C,cytopathic effect / XTT,>22
O=S(=O)(c1ccccc1)c1ccccc1,Calanolide A-resistant (RT T139I),RT-T139I,XTT,4.32
c1ccc2c(c1)sc1nccn12,IIIB(A17(III)),RT-K103N Y181C,cytopathic effect / XTT,>200
CCc1c(Sc2ccccn2)n(COCc2ccccc2)c(=O)[nH]c1=O,IIIB,RT-A98G V108I,cytopathic effect / XTT,30
O=S(=O)(c1ccccc1)c1ccccc1,UC82-R (RT-Y181C),RT-Y181C,cytopathic effect / XTT,>16.3
Cc1cn([C@H]2C[C@H](N=[N+]=[N-])[C@@H](CO)O2)c(=O)[nH]c1=O,IIIB(THZ-R(I)),RT-V108I,cytopathic effect / XTT,2.5

A second listing of 2 rows from above:

compound | strain | mutations | read by | result
Cc1ccnc2c1NC(=O)c1cccnc1N2C1CC1 | NL4-3 | RT-V108I | cytopathic effect / XTT | 3
O=S(=O)(c1ccccc1)c1ccccc1 | UC82-R (RT-Y181C) | RT-Y181C | cytopathic effect / XTT | >16.3